Data from PubChem BioAssay AID1259343 (VanderVen Lab, College of Veterinary Medicine, Cornell …, 2017).
The entries are a selection whose mix differs from that of the whole data set. The source made the active and inactive calls. No stated cut-off is given here; in the data, active means inhibition above about 50%; inactive means the rest.

Test: Mycobacterium tuberculosis growth inhibition, primary screen (AID 1259343)
Conditions: at 10 µM, stronger effect = higher value
For `Cc1cc(C)cc(OP(C)(N)=O)c1` (stereo not given), the inhibition was inactive: -9.69%.
For `CP(=O)(Nc1ccc(Br)cc1)Oc1ccccc1` (stereo not given), the inhibition was inactive: 22.8%.
With `CP(=O)(Nc1ccc(Br)cc1)Oc1ccc(Cl)cc1` (stereo not given) the inhibition was inactive: 15.1%.
In the case of `Cc1ccc(NP(C)(=O)Oc2ccc(C(C)C)cc2)cc1C` (stereo not given), the inhibition is reported as inactive: 40.4%.
With `COc1ccc(OP(C)(=O)Nc2ccc(Br)cc2)cc1` (stereo not given) the inhibition was active: 79.3%.
